A mixed list of measured activities; the numbers were collected in NIAID ChemDB.

Common to all: target-level tests; agent: HIV-1; protein: Reverse transcriptase; method: ELISA; measure: inhibition

Rows are shuffled and stem from different studies. Inhibition is in % at the dose shown (toxicity tests: loss of growth or viability).

smiles	tested at	result
O=C1CSC2(CCCCC2)N1c1ccccn1	10 µg/mL	0%
COc1cc(/C=C/C(=O)CC(=O)/C=C/c2ccc(O)c(OC)c2)ccc1O	200 µM	29%
O=[As]O	10 µM	27%
O=C(O)CP(=O)(O)O	2800 µM	42%
[Rb+]	100 µM	3%
CC1SC(c2c(F)cccc2F)N(Cc2ccco2)C1=O	10 µg/mL	0%
[O]=[W](=[O])([O-])[O-]	100 µM	7%
Cc1nc(N2C(=O)CSC2c2c(F)cccc2Cl)ccc1Br	10 µg/mL	59.4%
Clc1ccccc1-c1nc2cccc(Cl)n2c1NC1CCCC1	50 µM	94.9%
Cc1cccc(N2C(=O)CSC2c2cccnc2)n1	10 µg/mL	24.04%
O=[Se]([O-])[O-]	100 µM	14%
N#Cc1cccc2nc(-c3ccccc3Cl)c(NC3CCCCC3)n12	50 µM	95.3%
O=C1CSC2(CCCCC2)N1Cc1ccco1	10 µg/mL	0%
Clc1ccccc1-c1nc2ccccn2c1NC1CCCC1	50 µM	81.9%
O=C1CN=C(c2ccc[nH]2)c2cc(Cl)ccc2N1	250 µM	19%
COc1cc(OC)c(C2SCC(=O)N2c2cccc(C)n2)c(OC)c1	10 µg/mL	48.75%
[Li+]	100 µM	10%
Cc1ccc(CN2C(=O)CSC2c2c(F)cccc2Cl)o1	10 µg/mL	57.69%
Clc1ccccc1-c1nc2ccc(Br)cn2c1NC1CCCCC1	50 µM	80%
O=[Se](=O)([O-])[O-]	100 µM	14%
Cc1cccn2c(NC3CCCC3)c(-c3ccccc3Cl)nc12	50 µM	86.2%
[O]=[V](=[O])[O-]	100 µM	21%

For reference, 2 entries again:

Cc1nc(N2C(=O)CSC2c2c(F)cccc2Cl)ccc1Br ; tested at: 10 µg/mL ; result: 59.4%
COc1cc(OC)c(C2SCC(=O)N2c2cccc(C)n2)c(OC)c1 ; tested at: 10 µg/mL ; result: 48.75%